Assay results published in patent publication EP1366052B1 (priority 2001, dated 2002).

Tested on: weanling pigs
Details: Day 1 PM and following meal times

SMILES: CC1=C[C@H]2O[C@@H]3[C@H](O)C[C@](C)([C@@]2(CO)[C@H](O)[C@@H]1O)[C@]31CO1
- persistence of the effect on food consumption: wore off by the next meal
